Anti-infective test results gathered from many reports (values: NIAID ChemDB through PubChem).

All rows: tests in culture; agent: Candida albicans; read-out: MIC

Lines come from different laboratories, so protocols vary. An empty or dashed field is not shown. Two numbers with a dash give a range or band.

smiles | strain or isolate | read by | value
COc1ccccc1/C=C1\COc2ccc(-c3ccccc3)cc2C1=O |  |  | 50 µg/mL
COc1ccc(-c2cc(C(=O)N/N=C/c3ccc(Br)cc3)c3cc(Cl)ccc3n2)cc1 | ATCC 10231 |  | 25–50 µg/mL
Cc1c(/C(=N\O)c2ccccc2)oc2ccccc12 | Clinical isolate |  | 25 µg/mL
CCCCCCCCON1CCN(c2ccc(-c3ccc(C(=O)N[C@H]4CCCNC(=O)C5C[C@H](N)CN5C(=O)C(C(C)O)NC(=O)C(CCc5ccc(O)cc5)NC(=O)C5C[C@@H](O)CN5C(=O)C(C(C)O)NC4=O)cc3)cc2)CC1 | ATCC CCH442 |  | 0.2 µg/mL
COc1ccc(-c2cc(C(=O)N/N=C/c3ccc(Br)cc3)c3ccccc3n2)cc1 | ATCC 10231 |  | 50 µg/mL
COc1ccc(N2CCN(c3ccc(C(=O)N[C@H]4CCCNC(=O)C5C[C@H](N)CN5C(=O)C(C(C)O)NC(=O)C(CCc5ccc(O)cc5)NC(=O)C5C[C@@H](O)CN5C(=O)C(C(C)O)NC4=O)cc3)CC2)cc1 | ATCC 10231 |  | 3.12 µg/mL
CC(C)S(=O)(=O)N1CCN(c2cnn(-c3cc(F)cc(F)c3)c(=O)c2OC2CCC(F)C2)CC1 | CLY16997 | broth dilution | 0.03 µg/mL
O/N=C(\c1ccc(Cl)cc1)c1oc2ccccc2c1Cn1cncn1 | Clinical isolate |  | 25 µg/mL
C[C@@H](n1ccn(-c2ccc(F)cc2)c1=O)C(O)(Cn1cncn1)c1ccc(F)cc1F | TIMM1756 |  | <0.016 µg/mL
C[C@@H](SC1COC(/C=C/C=C/c2ccc(C#N)cc2F)OC1)[C@](O)(Cn1cncn1)c1ccc(F)cc1F | CAL-0066 |  | 0.03 µg/mL
O=C1/C(=C/c2ccc(O)cc2)COc2ccccc21 |  |  | 12.5 µg/mL
C[C@@H](N1CCN(c2ccc(F)cc2)C1=O)C(O)(Cn1cncn1)c1ccc(F)cc1F | TA |  | <0.016 µg/mL
CC1(C)CC(=O)c2cc(C3=CC(c4ccc(Cl)cc4)=CC3c3nnc4c(n3)Nc3ccccc3N4)[nH]c2C1 | ATCC 2091 |  | 200 µg/mL
Cc1c(/C(=N\O)c2ccc(Cl)cc2)oc2ccccc12 | Clinical isolate |  | 12.5 µg/mL
O=C(N/N=C/c1ccccc1)c1cc(-c2ccccc2)nc2ccc(Cl)cc12 | ATCC 10231 |  | 50–100 µg/mL
CC1=NN(c2nnc3c(n2)Nc2ccccc2C3)C(=O)C1 | ATCC 2091 |  | 200 µg/mL
O=C(N/N=C/c1ccccc1[N+](=O)[O-])c1cc(-c2ccc(Br)cc2)nc2ccc(Cl)cc12 | ATCC 10231 |  | 50–100 µg/mL
C[C@@H](N1CCN(c2ccc(OCC(F)(F)C(F)F)cc2)C1=O)C(O)(Cn1cncn1)c1ccc(F)cc1F | TA |  | <0.016 µg/mL
COc1ccc(-c2cc(C(=O)N/N=C/c3ccccc3[N+](=O)[O-])c3cc(Cl)ccc3n2)cc1 | ATCC 10231 |  | 25–50 µg/mL
CCCCCOc1ccc(-c2ccc(-c3ccc(C(=O)N[C@H]4CCCNC(=O)[C@@H]5C[C@H](N)CN5C(=O)CNC(=O)C(CCc5ccc(O)cc5)NC(=O)[C@@H]5C[C@@H](O)CN5C(=O)[C@H]([C@@H](C)O)NC4=O)cc3)cc2)cc1 | ATCC CCH442 |  | 0.39 µg/mL
Cc1c(C(=O)c2ccccc2)oc2ccccc12 | Clinical isolate |  | 25 µg/mL
CCCCCOc1ccc(-c2ccc(-c3ccc(C(=O)N[C@H]4CCCNC(=O)C5C[C@H](F)N5C(=O)C(C(C)O)NC(=O)C(CCc5ccc(O)cc5)NC(=O)C5C[C@@H](O)CN5C(=O)C(C(C)O)NC4=O)cc3)cc2)cc1 | ATCC CCH442 |  | 0.39 µg/mL
CC1(C)CC(=O)c2cc(C3CC(c4ccc(Br)cc4)=NO3)[nH]c2C1 | ATCC 2091 |  | 200 µg/mL
C[C@@H](n1ccn(-c2ccc(C(F)(F)F)cc2)c1=O)C(O)(Cn1cncn1)c1ccc(F)cc1F | TA |  | <0.016 µg/mL
COc1ccc(/C=C2\CS(=O)c3ccccc3C2=O)cc1 |  |  | 25 µg/mL
O=C(N/N=C/c1ccc([N+](=O)[O-])cc1)c1cc(-c2ccc(Br)cc2)nc2ccc(Cl)cc12 | ATCC 10231 |  | 50 µg/mL
CCCCCCCCOc1ccc(N2CCN(c3ccc(C(=O)N[C@H]4CCCNC(=O)C5C[C@H](N)CN5C(=O)C(C(C)O)NC(=O)[C@@H](OCc5ccccc5)NC(=O)C5C[C@@H](O)CN5C(=O)C(C(C)O)NC4=O)cc3)CC2)cc1 | ATCC 62376 |  | >100 µg/mL
O=C(N/N=C/c1ccccc1[N+](=O)[O-])c1cc(-c2ccc(Br)cc2)nc2ccccc12 | ATCC 10231 |  | 25–50 µg/mL
CCCCCOc1ccc(-c2ccc(-c3ccc(C(=O)N[C@H]4CCCNC(=O)C5C[C@H](N=[N+]=[N-])N5C(=O)C(C(C)O)NC(=O)C(CCc5ccc(O)cc5)NC(=O)C5C[C@@H](O)CN5C(=O)C(C(C)O)NC4=O)cc3)cc2)cc1 | ATCC 62376 |  | 3.12 µg/mL
COc1ccc2c(c1)C(=O)/C(=C/c1ccc(OC)c(OC)c1)CO2 |  |  | 25 µg/mL
CC1=NN(c2nnc3c(n2)Nc2ccccc2N3)C(=O)C1=C(C)C | ATCC 2091 |  | 200 µg/mL

A second listing of 2 rows from above:

smiles | strain or isolate | read by | value
COc1ccccc1/C=C1\COc2ccc(-c3ccccc3)cc2C1=O |  |  | 50 µg/mL
CC1=NN(c2nnc3c(n2)Nc2ccccc2N3)C(=O)C1=C(C)C | ATCC 2091 |  | 200 µg/mL